{"source": "paper PMC9927256", "about": "“Structural and Functional Characterization of Rv0792c from Mycobacterium tuberculosis: Identifying Small Molecule Inhibitor against HutC Protein” (Microbiology Spectrum, 2022)", "target": "T1, Rv0792c (HutC, GntR family) (Mycobacterium tuberculosis) (UniProt O86331)", "T1 sequence (O86331 whole entry, looked up)": "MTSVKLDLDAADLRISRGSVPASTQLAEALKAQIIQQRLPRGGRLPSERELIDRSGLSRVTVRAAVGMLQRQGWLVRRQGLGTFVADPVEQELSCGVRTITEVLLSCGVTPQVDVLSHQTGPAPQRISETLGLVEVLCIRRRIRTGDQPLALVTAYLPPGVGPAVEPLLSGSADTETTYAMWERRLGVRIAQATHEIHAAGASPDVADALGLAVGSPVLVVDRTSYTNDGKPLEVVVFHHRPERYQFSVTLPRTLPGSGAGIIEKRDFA", "assay": "EMSA", "conditions": "1 uM protein; recombinant protein; label: Cy5; probe letters rebuilt from the primers and the genome"}
{"sequence": "GGATATCAAGACGTATTAAAACGTCTTATACTCACCACGTCAAGCGTGCGTGCGCGGTAGCAGCGGAAGAAGGTCAGCCATGACGTCACCCGTCGCGGTCATCGCCCGGTTCATGCCACGGCCTGACGCTAGGTCGGCCCTGCGCGCTCTCTTGGACGCAATGATTACCCCGACACGGGCCGAGGACGGATGCCGTAGCTACGACCTCTACGAGAGCGCCGACGGCGGCGAGCTGGTGCTTTTCGAACGGTACCGCAGCCGCATCGCGCTCGACGAGCACCGCGGTTCGCCGCACTATCTGAACTACCGGGCACAGGTCGGTGAATTGCTGACCCGGCCCGTCGCGGTGACTGTGCTCGCGCCGCTCGACGAGGCTTCTGCTTAGAGCGGGTAGCACCCAGGCAGCTTGATCCACGCCCGGCACCGGCCGAGCGCTCGGGAACCGCCGCAGACCACCGCAGTCCCCCCGTGGGTTCAGCGGCGCGGCGGCGGGTTGGCTATACCAGCTCTAGAC (double strand) [Rv0792c promoter fragment]", "values": [{"measurement": "binding result", "value": "binds"}]}
